Anti-infective test results gathered from many reports (values: NIAID ChemDB through PubChem).

All rows: growth or infection tests; agent: HIV-1; cell line: MT-2; read-out: EC50

ECn is the concentration giving n% inhibition of infection, replication or growth.

smiles | strain or isolate | changes | method | result
CC(C)CN(C[C@@H](O)[C@H](Cc1ccccc1)NC(=O)O[C@H]1CCOC1)S(=O)(=O)c1ccc(N)cc1 | IIIB | D437N L441P | p24 / ELISA | 0.0473 µM
Cc1cn([C@H]2C[C@H](N=[N+]=[N-])[C@@H](CO)O2)c(=O)[nH]c1=O | IIIB |  | cytopathic effect / MTT | 0.11 µM
Nc1ccn([C@H]2CC[C@@H](CO)O2)c(=O)n1 | G910-6 AZT-resistant |  | cytopathic effect / MTT | ~0.2 µM
Cc1ccnc2c1NC(=O)c1cccnc1N2C1CC1 | IIIB (BI-RG-587-RS) |  | cytopathic effect / MTT | >11.1 µM
Nc1nc2c(ncn2CCOCP(=O)(O)O)c(=O)[nH]1 | LAI |  | p24 | 0.13 µM
O=C1N(CC2CC2)[C@H](Cc2ccc3c(c2)OCCO3)[C@H](O)[C@@H](O)[C@@H](Cc2ccc3c(c2)OCCO3)N1CC1CC1 | RF |  |  | <0.928 µM
Cc1ccnc2c1NC(=O)c1cccnc1N2C1CC1 | HX(RT-S156A) | RT-S156A | RT activity | 0.04 µM
O=C(Cn1ccnn1)c1cccc(CN2C(=O)N(Cc3ccc4[nH]ncc4c3)[C@H](Cc3ccccc3)[C@H](O)[C@@H](O)[C@H]2Cc2ccccc2)c1 | RF |  |  | <0.03 µM
O=C1N(CCCCCCO)[C@H](Cc2ccccc2)[C@H](O)[C@@H](O)[C@@H](Cc2ccccc2)N1CCCCCCO |  |  |  | <1.508 µM
CC(C)(C)NC(=O)[C@@H]1C[C@@H]2CCCC[C@@H]2CN1C[C@@H](O)[C@H](Cc1ccccc1)NC(=O)[C@H](CC(N)=O)NC(=O)c1ccc2ccccc2n1 | NL4-3 Laboratory clone |  | cytopathic effect / MTT | 0.019 µM
Nc1ncnc2c1ncn2CCOCP(=O)(O)O | LAI |  | p24 | 1.1 µM
NC(=NO)c1cccc(CN2C(=O)N(Cc3cccc(C(N)=NO)c3)[C@H](Cc3ccccc3)[C@H](O)[C@@H](O)[C@H]2Cc2ccccc2)c1 | RF WT |  |  | <0.3 µM
COc1ccc(/C=C/C=C/C(=O)[Se]c2ccccc2)cc1 | LAI |  | MTT | 3.4 µM
CC(=O)c1cccc(CN2C(=O)N(Cc3ccc4[nH]ncc4c3)[C@H](Cc3ccccc3)[C@H](O)[C@@H](O)[C@H]2Cc2ccccc2)c1 | RF |  |  | <0.015 µM
CC(C)=CCN1Cc2cccc3[nH]c(=S)n(c23)C[C@@H]1C | HX |  | RT activity | 0.13 µM
CCCCCCCCCCCCCCCCOCCCOP(=O)(O)COCCn1cc(F)c(N)nc1=O | LAI |  | p24 | 0.14 µM
Nc1ccn([C@H]2CC[C@@H](CO)O2)c(=O)n1 | LAI |  | cytopathic effect / MTT | 4 µM
Nc1nc(=O)n([C@@H]2CS[C@H](CO)O2)cc1F | Site-directed mutant | RT-K65R M184V | cytopathic effect / XTT | >161 µM
CN1CCC(CC2(CC3CCN(C)CC3)C(=O)N(c3ccccc3)c3ccccc32)CC1 | IIIB |  | cytopathic effect / XTT | 10.9 µM
CCCCCCCCCCCCCCCCCCOCCOP(=O)(O)COCCn1cnc2c(N)ncnc21 | LAI |  | p24 | 0.00002 µM
CCCN(CCC)C(=O)OCOP(=O)(CO[C@H](C)Cn1cnc2c(N)ncnc21)OCOC(=O)N(CCC)CCC | IIIB |  | cytopathic effect / MTT | 3 µM
Nc1ccn([C@H]2CC[C@@H](CO)O2)c(=O)n1 | HXB2D |  | cytopathic effect / XTT | 0.0038 µM
Cc1cn([C@H]2C[C@H](N=[N+]=[N-])[C@@H](CO)O2)c(=O)[nH]c1=O | 4246 Clinical isolate |  | RT activity | 0.001 µM
CCOP(=O)(COc1ccc(C[C@H](NC(=O)O[C@H]2CO[C@H]3OCC[C@H]32)[C@H](O)CN(CC(C)C)S(=O)(=O)c2ccc(OC)cc2)cc1)OCC | IIIB | K112M K113E V128I | p24 / ELISA | 0.008 µM
Cc1ccnc2c1NC(=O)c1cccnc1N2C1CC1 | RF |  |  | 0.018 µM
C[C@H](Cn1cnc2c(N)ncnc21)OCP(=O)(O)O | IIIB |  | p24 | 0.63 µM
CC(=O)c1cccc(CN2C(=O)N(Cc3cccc(C(C)=O)c3)[C@H](Cc3ccc4c(c3)OCO4)[C@H](O)[C@@H](O)[C@H]2Cc2ccc3c(c2)OCO3)c1 | RF |  |  | <0.0147 µM
O=c1[nH]cnc2c1ncn2[C@H]1CC[C@@H](CO)O1 | LAI Laboratory isolate |  | cytopathic effect / MTT | 3.4 µM
O=C1N(Cc2ccccc2)[C@H](Cc2ccc3ccccc3c2)[C@H](O)[C@@H](O)[C@@H](Cc2ccc3ccccc3c2)N1Cc1ccccc1 | RF |  |  | <3.2 µM
C[C@H](Cn1cnc2c(N)ncnc21)OCP(=O)(O)O | Site-directed mutant | RT-K65R Y115F | cytopathic effect / XTT | 21.24 µM
O=C1N(CCCCCCO)[C@H](Cc2ccccc2)[C@H](O)[C@@H](O)[C@@H](Cc2ccccc2)N1Cc1ccc2ccccc2c1 |  |  |  | <0.264 µM
CCCc1cc(=O)oc2c3c(c4c(c12)OC(C)(C)C=C4)O[C@@H](C)[C@H](C)[C@H]3O | A-17 (TIBO-RS) |  | cytopathic effect / MTT | >0.2 µM
O=C1N(Cc2cccc(NCc3nc4ccccc4[nH]3)c2)[C@H](Cc2ccccc2)[C@H](O)[C@@H](O)[C@@H](Cc2ccccc2)N1Cc1ccc2[nH]ncc2c1 | RF WT |  |  | <0.063 µM
CCN(c1nc(F)ccc1NC(C)(C)C)C1CCN(C(=O)c2cc3cc(NC(=O)N4CCN(C)CC4)ccc3[nH]2)CC1 | IIIB | M200I | p24 / ELISA | 0.0261 µM
Nc1ccc(CN2C(=O)N(Cc3ccc4[nH]ncc4c3)[C@H](Cc3ccccc3)[C@H](O)[C@@H](O)[C@H]2Cc2ccccc2)cc1 | RF WT |  |  | <0.011 µM
CS(=O)(=O)N1CCC(CC2C(=O)N(c3ccccc3)c3ccccc32)CC1 | RF |  | plaque count | >11 µM
CO[P@](=O)(c1cc(C)cc(/C=C/C#N)c1)c1c(C(N)=O)[nH]c2ccc(Cl)c(F)c12 | BH10 |  |  | 0.0009 µM
Cc1nc(C)c([C@H](OC(C)(C)C)C(=O)O)c(N2CC3CCCC3C2)c1-c1ccc(C(=O)NCc2ccc(F)cc2)cc1 | NL4-3 |  | luciferase | <0.1 µM
O=C(O)P(=O)(O)O | LAI viral clone (RT-H208Y) | RT-H208Y | cytopathic effect / MTT | 68 µM
Cc1cn([C@H]2C[C@H](N=[N+]=[N-])[C@@H](CO)O2)c(=O)[nH]c1=O | NL4-3 | PR-A71T | p24 | 0.004 µM
Nc1nc(NC2CC2)c2ncn(CCOCP(=O)(O)O)c2n1 | LAI |  | p24 | 0.07 µM
Cc1cn([C@H]2C[C@H](N=[N+]=[N-])[C@@H](CO)O2)c(=O)[nH]c1=O | LAI WT |  | p24 | 0.031 µM
CC(C)(C)OC(=O)N[C@@H](Cc1ccccc1)[C@H](O)CNC[C@@H](O)[C@H](Cc1ccc(OCC(=O)N2CCOCC2)cc1)NC(=O)OC(C)(C)C | RF |  | p24 | 0.04 µM
O=C1N(Cc2ccc3ccccc3c2)[C@H](Cc2ccccc2)[C@H](O)[C@@H](O)[C@@H](Cc2ccccc2)N1Cc1ccc2ccccc2c1 | RF |  |  | <3.9 µM
CCCCCCCCN1C(=O)C(CC2=CCN(C)CC2)(CC2=CCN(C)CC2)c2ccccc21 | IIIB |  | cytopathic effect / XTT | 4.3 µM
Cc1ccc(/C=C/C=C/C(=O)[Se]c2ccccc2)cc1 | LAI |  | MTT | 4.3 µM
C[C@@H]1CN(C(=O)c2ccccc2)CCN1C(=O)C(=O)c1c[nH]c2nccc(OCCOCCOCCOCCOCCOCCn3cc(COCCOCCOCCOCCNc4ccc([N+](=O)[O-])cc4[N+](=O)[O-])nn3)c12 | IIIB |  | MTT | 6.4 µM
Cc1nc(C)c([C@H](OC(C)(C)C)C(=O)O)c(N2CCC(C3CCCCC3)CC2)c1-c1ccc(OCCc2ccc(F)cc2)cc1 | NL4-3 |  | luciferase | <0.1 µM
O=C1N(c2ccccc2)c2ccccc2C1(CC1=CCN(CC2CC2)CC1)CC1=CCN(CC2CC2)CC1 | IIIB |  | cytopathic effect / XTT | 5.1 µM
CCCCCCCCCCCCCCCCOCCCOP(=O)(O)COCCn1cc(Br)c(N)nc1=O | LAI |  | p24 | 31 µM
O=C1N(CCCCCO)[C@H](Cc2ccccc2)[C@H](O)[C@@H](O)[C@@H](Cc2ccccc2)N1Cc1cccc(O)c1 |  |  |  | <0.036 µM
Nc1cccc(CN2C(=O)N(Cc3cccc(N)c3)[C@H](Cc3ccc4c(c3)CCO4)[C@H](O)[C@@H](O)[C@H]2Cc2ccc3c(c2)CCO3)c1 | RF |  |  | <0.0306 µM
O=C(CCc1ccccc1)[Se]c1ccccc1 | LAI |  | MTT | 8.7 µM
O=C1N(Cc2cccc(Cn3cccn3)c2)[C@H](Cc2ccccc2)[C@H](O)[C@@H](O)[C@@H](Cc2ccccc2)N1Cc1ccc2[nH]ncc2c1 | RF |  |  | <0.046 µM
CC(C)c1nc(CN(C)C(=O)N[C@H](C(=O)N[C@@H](Cc2ccccc2)C[C@H](O)[C@H](Cc2ccccc2)NC(=O)OCc2cncs2)C(C)C)cs1 | NL4-3 Laboratory clone |  | cytopathic effect / MTT | 0.038 µM
Nc1cccc(CN2C(=O)N(Cc3cccc(N)c3)[C@H](Cc3ccccc3)[C@H](O)[C@@H](O)[C@H]2Cc2ccccc2)c1 | RF WT |  |  | <0.13 µM
Cc1cn([C@@H]2CC[C@H](CO)O2)c(=O)[nH]c1=O | IIIB |  | cytopathic effect / MTT | >100 µM
O=C(c1ccccc1)N1CCC(CC2C(=O)N(c3ccccc3)c3ccccc32)CC1 | IIIB |  | cytopathic effect / XTT | 1.3 µM
CC(C)(C)NC(=O)[C@@H]1CN(Cc2cccnc2)CCN1C[C@@H](O)C[C@@H](Cc1ccccc1)C(=O)N[C@H]1c2ccccc2C[C@H]1O | NL4-3 Laboratory clone |  | cytopathic effect / MTT | 0.011 µM
Nc1ccn([C@H]2CC[C@@H](CO)O2)c(=O)n1 | IIIB |  | cytopathic effect / MTT | 0.94 µM
O=C1N(CCCCCCCO)[C@H](Cc2ccccc2)[C@H](O)[C@@H](O)[C@@H](Cc2ccccc2)N1CCCCCCCO |  |  |  | <9.013 µM
O=c1[nH]cnc2c1ncn2[C@H]1CC[C@@H](CO)O1 | HXB2D (RT D67N K70R T215Y) | RT-D67N K70R T215Y |  | 0.0058 µM
CNc1cccc(CN2C(=O)N(Cc3cccc(NC)c3)[C@H](Cc3ccc4c(c3)CCO4)[C@H](O)[C@@H](O)[C@H]2Cc2ccc3c(c2)CCO3)c1 | RF |  |  | <0.0616 µM
Nc1nc(NC2CC2)c2ncn([C@H]3C=C[C@@H](CO)C3)c2n1 | LAI |  | MTT | 2.6 µM
CN(C)c1cccc(CN2C(=O)N(Cc3ccc4[nH]ncc4c3)[C@H](Cc3ccccc3)[C@H](O)[C@@H](O)[C@H]2Cc2ccccc2)c1 | RF |  |  | <0.039 µM
CN1CC=C(CC2(CC3=CCN(C)CC3)C(=O)N(Cc3ccccc3)c3ccccc32)CC1 | IIIB |  | cytopathic effect / XTT | 34 µM
Nc1nc(NC2CC2)c2ncn([C@H]3C=C[C@@H](CO)C3)c2n1 | HXB2D |  | cytopathic effect / XTT | 0.0003 µM

Blank or dashed fields: not listed here. Rows are shuffled and stem from different studies.